A mixed list of measured activities; the numbers were collected in NIAID ChemDB.

Common to all: growth or infection tests; organism: Mycobacterium tuberculosis

Blank or dashed fields: not listed here.

smiles	strain	changes	read by	tested at	cell line	conditions	measure	value
O=C1c2ccccc2-c2c1c1n[nH]c(=S)n1c1ccc(Br)cc21	H37Rv		BACTEC / radiometric	6.25 µg/mL			inhibition	55%
Clc1ccc(C(Cn2ccnc2)OCc2ccc(-c3ccccc3)cc2)c(Cl)c1	CIP103471						MIC	4 µg/mL
CC(C)(C)OC(=O)N[C@@H](CO)C(=O)N/N=C/c1cccc(C#N)c1	H37Rv		resazurin				MIC	>100 µg/mL
Cc1c2cnccc2c(C)c2c1c1ccccc1n2CCNCc1ccccc1	H37Rv		resazurin	6.25 µg/mL			inhibition	96%
COc1ccccc1-c1csc(NC(=O)c2ccc([N+](=O)[O-])o2)n1	H37Ra			1 µM			inhibition	<0%
O=C(O)c1cc(-c2ccc([N+](=O)[O-])cc2)nc2ccccc12	H37Rv		fluorescence				MIC	6.25 µg/mL
CC(=O)c1ccccc1Sc1nnc(N2CCN(c3nc(N4CCN(c5ccccc5)CC4)c4ccccc4n3)CC2)o1	H37Rv		BACTEC / fluorescence				MIC	>6.25 µg/mL
O=C(Nc1nc(-c2cccs2)cs1)c1cc(-c2ccc([N+](=O)[O-])s2)nc2ccccc12	H37Rv		fluorescence				MIC	6.25 µg/mL
Cc1ccc(Sc2nnc(N3CCN(c4nc(N5CCN(c6ccccc6)CC5)c5ccccc5n4)CC3)o2)cc1	H37Rv		agar / visual reading				MIC	6.25 µg/mL
CC1(O)C2=C(c3cc(Br)ccc3N3CCN=C23)c2ccccc21	H37Rv		BACTEC / radiometric	6.25 µg/mL			inhibition	52%
COC(=O)C1=C(C)N(c2ccc(Br)cc2)C(C)=C(C(=O)OC)C1c1ccc(-c2ccc(F)c(Cl)c2)o1	H37Rv		BACTEC / radiometric	6.25 µg/mL			inhibition	14%
CONc1ncnc2c1n(C/C=C(\C)CC/C=C(\C)CCC1CCCCC1)c[n+]2C							MIC	1.56 µg/mL
CCN(CC)CC(O)CNc1ccc(C)c2sc3ccccc3c(=O)c12	H37Rv		BACTEC				MIC	6.25 µg/mL
CC(=O)CN[C@@H]1[C@H](O[C@H]2[C@H](O[C@H]3[C@H](O)[C@@H](O)[C@H](N=C(N)N)[C@@H](O)[C@@H]3N=C(N)N)O[C@@H](C)[C@]2(O)COC(c2ccccc2)(c2ccccc2)c2ccccc2)O[C@@H](CO)[C@H](O)[C@H]1O	666						MIC	50 µg/mL
COc1ccc(/C=N/NC(=O)[C@H](CO)NC(=O)OCc2ccccc2)cc1OC	H37Rv		resazurin				MIC	>100 µg/mL
Cc1ccc(C(Cn2ccnc2)OC/C=C/c2ccccc2)cc1	CIP103471						MIC	4 µg/mL
O=Nc1c(-c2ccccc2)[nH]oc1=O	H37Rv		resazurin		VERO		MIC	6.25 µg/mL
CN[C@@H]1[C@H](O[C@H]2[C@H](O[C@H]3[C@H](O)[C@@H](O)[C@H](N=C(N)N)[C@@H](O)[C@@H]3N=C(N)N)O[C@@H](C)[C@]2(O)C=O)O[C@@H](CO)[C@H](O)[C@H]1O	K137						MIC	≥512 µg/mL
N#Cc1cccc(/C=N/NC(=O)[C@H](CO)NC(=O)OCc2ccccc2)c1	H37Rv		resazurin				MIC	50 µg/mL
O=C(O)c1ccc(NNC(=O)N2CCN(c3nc(N4CCN(c5ccccc5)CC4)c4ccccc4n3)CC2)cc1	H37Rv		agar / visual reading				MIC	100 µg/mL
C=CCSS/C=C/CS(=O)CC=C	RMP-R						MIC	>12.5 µg/mL
CN1CCN(c2nc(Oc3ccc(C#N)cc3)nc(-c3ccc(N4C(=O)CSC4c4ccccc4)cc3)n2)CC1	H37Rv		agar				MIC	200 µg/mL
O=C(Nc1ccccc1)c1cc(/C=C/c2cccs2)nc2ccccc12	H37Rv		fluorescence				MIC	>6.25 µg/mL
Cc1cc(C)c(-c2csc(NC(=O)c3ccc([N+](=O)[O-])o3)n2)c(C)c1	H37Ra			10 µM			inhibition	<0%
CCOC(=O)C(/C=N/c1[nH]ncc1C#N)=C(/C(=O)OCC)c1ccc(O)cc1	H37Rv		BACTEC				MIC bound	>12.5 µg/mL
C[C@@H]1CN(c2c(F)c(N)c3c(=O)c(C(=O)O)cn(C4CC4)c3c2F)C[C@H](C)N1							MIC	>0.12 µg/mL
CCOC(=O)Nc1nc2ccccc2n1CN1CCN(c2ccccc2)CC1	H37Rv		resazurin				MIC bound	>6.25 µg/mL
CCOC(=O)C1=C(C)N(c2ccccc2Cl)C(C)=C(C(=O)OCC)C1c1ccc(-c2ccc(F)c(Cl)c2)o1	H37Rv		BACTEC / radiometric	6.25 µg/mL			inhibition	23%
CCn1cc(C(=O)O)c(=O)c2cc(F)c(-n3cccc3)cc21						pH 6.8	EC50	<3 µg/mL
COc1ccccc1/C=N/NC(=O)[C@H](CO)NC(=O)OC(C)(C)C	H37Rv		resazurin				MIC	>100 µg/mL
CCCNC(=O)Nc1c([N+](=O)[O-])cc(C(F)(F)F)cc1[N+](=O)[O-]	H37Rv		BACTEC				MIC bound	>12.5 µg/mL
COc1c(-c2ccc3c(c2)OCO3)oc2c3c(ccc2c1=O)OC(C)(C)C=C3	H37Ra						MIC	100 µg/mL
O=C(O)c1cc(-c2ccc(Br)cc2)nc2ccccc12	H37Rv		fluorescence				MIC	6.25 µg/mL
C=C1[C@@H]2[C@H]3OC(=O)C(=C)[C@@H]3CCC(=C)[C@@H]2C[C@@H]1O	H37Rv		BACTEC				MIC bound	>12.5 µg/mL
CCOC(=O)C1=C(C)N(c2ccccc2[N+](=O)[O-])C(C)=C(C(=O)OCC)C1c1ccc(-c2ccc(F)c(Cl)c2)o1	H37Rv		BACTEC / radiometric	6.25 µg/mL			inhibition	22%
CCCCc1nnc2c3c(c4cc(Br)ccc4n12)-c1ccccc1C3=O	H37Rv		BACTEC / radiometric	6.25 µg/mL			inhibition	69%
Nc1nc2ncc(NCc3ccc(C(=O)NC(CCC(=O)O)C(=O)O)cc3)nc2c(=O)[nH]1	H37Rv		BACTEC	12.5 µg/mL			inhibition	4%
COc1ccc(/C=N/NC(=O)[C@H](CO)NC(=O)OC(C)(C)C)c(O)c1	H37Rv		resazurin				MIC	>100 µg/mL
NC(N)=Nc1nc2ccccc2[nH]1	H37Rv		resazurin				MIC bound	>6.25 µg/mL
COc1cccc(-c2oc3c(ccc4occc43)c(=O)c2OC)c1	H37Ra						MIC	200 µg/mL
C(=C\c1ccccc1)/COC(Cn1ccnc1)c1ccccc1	CIP103471						MIC	4 µg/mL
COc1cccc(-c2csc(NC(=O)c3ccc([N+](=O)[O-])cc3)n2)c1	H37Ra			1 µM			inhibition	<0%
O=C(NNc1cccc([N+](=O)[O-])c1)N1CCN(c2nc(N3CCN(c4ccccc4)CC3)c3ccccc3n2)CC1	H37Rv		BACTEC / fluorescence	6.25 µg/mL			inhibition	0%
CCOC(=O)C1=C(C)N(c2ccc(F)cc2)C(C)=C(C(=O)OCC)C1c1ccc(-c2ccc(F)c(Cl)c2)o1	H37Rv		BACTEC / radiometric	6.25 µg/mL			inhibition	25%
Cc1ccc(NC(=O)c2cc(/C=C/c3ccc(-c4ccc([N+](=O)[O-])s4)s3)nc3ccc(C)cc23)cc1	H37Rv		fluorescence				MIC	>6.25 µg/mL
Cc1cc(O)c2c(c1)[C@H](O)CCC2=O	H37Rv ATCC 27294 (drug-susceptible)						MIC	100 µg/mL
CC(C)=CCC/C(C)=C/CC/C(C)=C/CC/C(C)=C/Cn1c[n+](C)c2ncnc(N)c21				6.25 µg/mL			inhibition	38%
Clc1ccc(C(Cn2ccnc2)OC/C=C/c2ccccc2)c(Cl)c1	CIP103471						MIC	8 µg/mL
CC(C)(C)OC(=O)N[C@@H](CO)C(=O)N/N=C/c1cccc([N+](=O)[O-])c1	H37Rv		resazurin				MIC	>100 µg/mL
O=C1c2[nH]c3ccccc3c2CN1CCc1ccccc1	H37Rv		BACTEC				MIC	≥12.8 µg/mL
CC(=O)N[C@@H]1[C@H](O[C@H]2[C@H](O[C@H]3[C@H](O)[C@@H](O)[C@H](N=C(N)N)[C@@H](O)[C@@H]3N=C(N)N)O[C@@H](C)[C@]2(O)CO)O[C@@H](CO)[C@H](O)[C@H]1O	666						MIC	1.56 µg/mL
O=c1n(CC2CO2)c(=O)n(CC2CO2)c(=O)n1CC1CO1	H37Rv		BACTEC				MIC bound	>12.5 µg/mL
O=C(Nc1nc(-c2c(F)cc(F)cc2F)cs1)c1ccc([N+](=O)[O-])o1	H37Ra			1 µM			inhibition	<0%
OC[C@@H](O)[C@@H](O)[C@H](O)C(/C=N/Nc1ccccc1)=N/Nc1ccccc1	H37Rv		resazurin	6.26 µg/mL			inhibition	-5%
C[C@H]1COc2c(N3CCN(C)CC3)c(F)cc3c(=O)c(C(=O)O)cn1c23	483-8						MIC	0.5 µg/mL
CC(=O)O[C@H]1CC2[C@@H](C(C)(C)O)CC[C@]2(C)C2CCC3[C@@]4(C)CCCC(C)(C)C4CC[C@@]3(C)[C@@]21C							MIC	>50 µg/mL
CC(C)(C)c1ccc(COC(Cn2ccnc2)c2ccc(Cl)cc2)cc1	CIP103471						MIC	1 µg/mL
CCCc1nnc2c3c(c4cc(Br)ccc4n12)-c1ccccc1C3=O	H37Rv		BACTEC / radiometric	6.25 µg/mL			inhibition	72%
N#C/C(=C\NC(=S)c1ccncc1)c1nc2ccccc2s1	H37Rv		resazurin	6.25 µg/mL			inhibition	-75%
COc1ccc(-c2coc3c(OC)c(OCC=C(C)C)ccc3c2=O)cc1	H37Ra						MIC	100 µg/mL
O=C(O)c1nc(-c2ccc(S(=O)(=O)O)cc2)[nH]c1C(=O)O	H37Rv		resazurin				MIC bound	>6.25 µg/mL
CCOC(=O)C1=C(C)N(c2ccccc2)C(C)=C(C(=O)OCC)C1c1ccc(-c2ccc(F)c(Cl)c2)o1	H37Rv		BACTEC / radiometric	6.25 µg/mL			inhibition	15%
O=C(O)c1ccc(Sc2nnc(N3CCN(c4nc(N5CCN(c6ccccc6)CC5)c5ccccc5n4)CC3)o2)cc1	H37Rv		BACTEC / fluorescence				MIC	>6.25 µg/mL
COC(=O)C1=C(C)N(c2ccc(Cl)cc2)C(C)=C(C(=O)OC)C1c1ccc(-c2ccc(F)c(Cl)c2)o1	H37Rv		BACTEC / radiometric	6.25 µg/mL			inhibition	7%
CCOC(=O)C12OC(=O)CC(NC1C(=O)OC(C)(C)C)C2O	H37Rv		BACTEC				MIC bound	>12.5 µg/mL
COC(=O)c1c(C(=O)OC)c2cc(C(=O)OC(C)C)ccn2c1C(=O)c1ccc(Br)cc1		XDR-MTB	resazurin				MIC	8 µg/mL
CC1=C(O)C(=O)[C@H]2O[C@H]2C1=O	H37Rv		BACTEC	12.5 µg/mL			inhibition	26%
OCC1CCCC1CNCCCCNCC1CCCC1CO	H37Rv						MIC	>64 µg/mL
CCN(CC)CCNc1cc2c(c3c(=O)c4ccccc4sc13)CCCC2	H37Rv		BACTEC				MIC bound	≤12.5 µg/mL
Cc1ccccc1NNC(=O)N1CCN(c2nc(N3CCN(c4ccccc4)CC3)c3ccccc3n2)CC1	H37Rv		BACTEC / fluorescence	6.25 µg/mL			inhibition	0%
CCN1CC2(COC(=O)c3ccccc3N3C(=O)C[C@H](C)C3=O)CC[C@@H](OC)C34C5CC6[C@H](OC)C5C5(C[C@@H]6OC)OCOC5(C13)[C@H](OC)C24	H37Rv		BACTEC	12.5 µg/mL			inhibition	-25%
COC(=O)C1=C(C)N(c2ccccc2[N+](=O)[O-])C(C)=C(C(=O)OC)C1c1ccc(-c2ccc(F)c(Cl)c2)o1	H37Rv		BACTEC / radiometric	6.25 µg/mL			inhibition	27%
O=C(Nc1nc(-c2ccccc2)cs1)c1cc(/C=C/c2ccc(-c3ccc([N+](=O)[O-])s3)s2)nc2ccccc12	H37Rv		fluorescence				MIC	6.25 µg/mL
CC[C@]1(O)C[C@H]2CN(CCC3=C(NC4CC=CC=C34)[C@@](C(=O)OC)(c3cc4c(cc3OC)N(C)[C@@H]3[C@]45CCN4CC=C[C@@](CC)(C(OC(=O)CCCCCCCCCCCN6C(=O)C=CC6=O)[C@]3(O)C(=O)OC)[C@H]45)C2)C1	H37Rv		BACTEC	12.5 µg/mL			inhibition	14%
OCC1CCCC1CNCCCCCCNCC1CCCC1CO	H37Rv						MIC	>64 µg/mL
Cc1ccccc1Sc1nnc(N2CCN(c3nc(N4CCN(c5ccccc5)CC4)c4ccccc4n3)CC2)o1	H37Rv		agar / visual reading				MIC	6.25 µg/mL

A second listing of 6 rows from above:

smiles	strain	changes	read by	tested at	cell line	conditions	measure	value
CCOC(=O)C1=C(C)N(c2ccccc2[N+](=O)[O-])C(C)=C(C(=O)OCC)C1c1ccc(-c2ccc(F)c(Cl)c2)o1	H37Rv		BACTEC / radiometric	6.25 µg/mL			inhibition	22%
CCOC(=O)C1=C(C)N(c2ccccc2)C(C)=C(C(=O)OCC)C1c1ccc(-c2ccc(F)c(Cl)c2)o1	H37Rv		BACTEC / radiometric	6.25 µg/mL			inhibition	15%
CCCNC(=O)Nc1c([N+](=O)[O-])cc(C(F)(F)F)cc1[N+](=O)[O-]	H37Rv		BACTEC				MIC bound	>12.5 µg/mL
O=C(O)c1ccc(Sc2nnc(N3CCN(c4nc(N5CCN(c6ccccc6)CC5)c5ccccc5n4)CC3)o2)cc1	H37Rv		BACTEC / fluorescence				MIC	>6.25 µg/mL
C=CCSS/C=C/CS(=O)CC=C	RMP-R						MIC	>12.5 µg/mL
CCOC(=O)C12OC(=O)CC(NC1C(=O)OC(C)(C)C)C2O	H37Rv		BACTEC				MIC bound	>12.5 µg/mL

Inhibition is in % at the dose shown (toxicity tests: loss of growth or viability). MIC bound comes from a single tested concentration. ECn: concentration that inhibits the pathogen or its effect by n%. Conditions beyond the fields shown may differ between rows.